Data source: PubChem BioAssay AID504761 (Drosophila RNAi Screening Center, 2011)

Purpose: 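Insect host genes that dengue virus relies on to spread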 (primary screen)
Cell system: D.Mel-2 cells from Drosophila
Reagent: long dsRNA against Drosophila genes
Treatment: infection with dengue virus type 2; dose and infection time not stated
Read-out: 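Cells stained for dengue envelope protein and imaged; percent of infected cells per well on duplicate plates, ranked by infection, with stained nuclei counted for cell number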
Reading the numbers: infection score: higher = more virus-infected cells; cell count: higher = more cells in the well
Call rule: 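Very low infection ranking in both replicate wells (chance probability at most 0.065), then a retest showing infection dropped 1.5-fold or more at p below 0.05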
Meaning of the calls: active = confirmed: knock-down lowers infection; inactive = not picked or not confirmed
The deposit covers about 22,000 reagents; this is a random part of those with a known target gene and a result. In the full data, 116 (0.52%) are marked active. 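Calls depend on retest data that are not deposited; infection was ranked per plate without normalising between plates; the unit of the infection score is not given.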 Raw values vary from plate to plate and are shown uncorrected. Unmarked entries are inactive. A plus sign joins genes that one reagent is predicted to hit. The record does not give: the amount of reagent, the time to read-out.

predicted target	DRSC id	infection score, replicate 1	infection score, replicate 2	cell count, replicate 1	cell count, replicate 2
CG14306 (retired record) (GeneID 42231)	DRSC14785	7.06	4.8	6314	6060
COX7C (GeneID 50246)	DRSC06831	5.45	18.1	5578	5497
CG18088 (GeneID 34219)	DRSC02654	5.71	5.54	6374	6891
CG10508 (GeneID 40342)	DRSC11612	16.9	5.84	5466	6710
CG10508 (GeneID 40342)	DRSC11613	5.71	1.62	6565	6587
Orcokinin (GeneID 37806)	DRSC04202	16.8	27.2	5506	6070
RpL34a (GeneID 43169)	DRSC15964	17.2	3	4001	6996
Coop (GeneID 35677)	DRSC06604	10.9	13.2	6259	5201
Coop (GeneID 35677)	DRSC25252	2.45	11.7	6415	5992
CG5382 (GeneID 42618)	DRSC15786	8.79	1.62	6288	6561
Gpo2 (GeneID 35689)	DRSC06822	7.45	11.5	6590	5308
Taf8 (GeneID 32792)	DRSC20363	13.3	21.9	5484	5481
Pep (GeneID 45961)	DRSC11252	8.37	14.3	4431	2182
CG8526 (GeneID 41208)	DRSC16438	8.06	21.8	6450	6046
CG8526 (GeneID 41208)	DRSC26422	4.57	1.68	6458	6241
blanks (GeneID 38620)	DRSC09757	6.61	7.77	5828	5338
CG9521 (GeneID 32414)	DRSC20196		0.23	435	426
PI31 (GeneID 36277)	DRSC07306		8.27	422	4775
Helz (GeneID 39613)	DRSC11072	5.19	2.39	6664	6681

The list goes on; the last 8 above are carried over.
predicted target	DRSC id	infection score, replicate 1	infection score, replicate 2	cell count, replicate 1	cell count, replicate 2
Taf8 (GeneID 32792)	DRSC20363	13.3	21.9	5484	5481
Pep (GeneID 45961)	DRSC11252	8.37	14.3	4431	2182
CG8526 (GeneID 41208)	DRSC16438	8.06	21.8	6450	6046
CG8526 (GeneID 41208)	DRSC26422	4.57	1.68	6458	6241
blanks (GeneID 38620)	DRSC09757	6.61	7.77	5828	5338
CG9521 (GeneID 32414)	DRSC20196		0.23	435	426
PI31 (GeneID 36277)	DRSC07306		8.27	422	4775
Helz (GeneID 39613)	DRSC11072	5.19	2.39	6664	6681
Spn42Da (GeneID 49805)	DRSC05025	3.62		856	350
CG32814 (GeneID 318223)	DRSC17670	2.55	3.31	6719	6882
CG32814 (GeneID 318223)	DRSC26042	14.1	9.22	3309	6169
CG31007 (GeneID 318553)	DRSC14029	0.89	0.87	6281	5858
CG31007 (GeneID 318553)	DRSC28221	10.1	10.9	2578	4965
CG16782 (GeneID 31313)	DRSC18118	1.23	9.67	6611	5355
CG3526 (GeneID 31277)	DRSC17240	0.08	0.01	6411	6714
CG3526 (GeneID 31277)	DRSC18636		15.3	313	5129
CG3526 (GeneID 31277)	DRSC24423	5.38	3.99	5674	6088
CG31548 (GeneID 318794)	DRSC22640	8.34	28.8	6822	6386
CG31548 (GeneID 318794)	DRSC25763	2.1	2.11	5528	5916
cbc (GeneID 36494)	DRSC06957	6.77	7.5	5824	3562
LIMK1 (GeneID 32207)	DRSC19811	1.05	3.07	6768	6423
Lectin-galC1 (GeneID 35216)	DRSC03362	8.43		6130	626
shf (GeneID 31617)	DRSC18283	2.84	1.69	6714	6706
shf (GeneID 31617)	DRSC24224	1.75	3.57	6499	5742
Mob3 (GeneID 34372)	DRSC02791	3.67	1.51	6861	6543
Gss1 + Gss2	DRSC20008	0.99	1.55	6771	6397
Gss1 + Gss2	DRSC21539	1.18	4.88	6122	6514
CG6429 (GeneID 36893)	DRSC06986	18.9	12.4	6017	6963
CG32668 (GeneID 318147)	DRSC18879	2.24	8.4	6306	5932
CG5217 (GeneID 42311)	DRSC15740	3.15	2.95	6676	6075
Acp53C14a (GeneID 36872)	DRSC07224	9.18	15	6712	6300
CG31189 (GeneID 42487)	DRSC16198	7.26	10.2	6595	6091
CG10510 (GeneID 40341)	DRSC11614	12.5	10.9	5610	6650
CG33255 (retired record) + hpRNA:CR32205 + hpRNA:CR32207	DRSC09617	0.03 (active)	0.11	6507	6552
CG15278 (GeneID 34865)	DRSC02481	2.36	4.83	5793	6398
CG10674 (GeneID 38602)	DRSC09775	4.69	1.57	5926	5910
CG4716 (GeneID 36471)	DRSC06884	13.2	8.49	6054	5819
CG4716 (GeneID 36471)	DRSC26611	5.45	6.21	6262	6067
c(3)G (GeneID 47765)	DRSC15245	17.7	15.9	7000	6382
c(3)G (GeneID 47765)	DRSC26062	12.6	3.38	5794	6064
tgy (GeneID 32896)	DRSC20045	12.8	1.88	6062	5809
RpS13 (GeneID 34149)	DRSC03419	5.81	5.66	2804	2084
RpS13 (GeneID 34149)	DRSC28558	9.44	9.39	837	1076
Trpm (GeneID 36694)	DRSC06629	5.58	9.65	5855	6080
Trpm (GeneID 36694)	DRSC21566	0.84	1.37	5818	7007
Trpm (GeneID 36694)	DRSC27597	2.84	27.2	6027	5162
Trpm (GeneID 36694)	DRSC29042	11.6		748	275
